Test results: publication PMC6361445
Construct, isoform or probe ends are uncertain for at least one entry.

Experiments:
[1] = biological target: His6-CpxR, phosphorylated (CpxR~P) (Salmonella enterica serovar Typhimurium) (UniProt Q8ZKR6); experiment: EMSA; conditions: acetyl phosphate-phosphorylated CpxR; 10 mM Tris pH 7.4, 10 mM MgCl2, 100 mM KCl, 10% glycerol, 2 mM DTT, 30 uM BSA; 0.15 pmol DNA, 0-23 pmol CpxR~P in 10 ul; 20 min room temperature; 4% native gel; recombinant protein; protein details: His6; probe letters rebuilt from the primers and the genome
[2] = biological target: His6-CpxR, phosphorylated (CpxR~P) (Salmonella enterica serovar Typhimurium) (UniProt Q8ZKR6); experiment: DNase I footprinting; conditions: acetyl phosphate-phosphorylated CpxR, 10 mM Tris pH 7.4, 10 mM MgCl2, 100 mM KCl, 10% glycerol, 2 mM DTT, 30 uM BSA, 0.15 pmol DNA, 0-23 pmol CpxR~P in 10 ul, 20 min room temperature, 4% native gel, recombinant protein, protein details: His6, probe letters rebuilt from the primers and the genome
[3] = label: DIG on non-coding strand

## CCTGTTATCGGCGCCTGTGCCGGAGCAGCCATATATCGCTATTTTATTGGTAAGAATTTACCTTGTAACCGCTGTGAACTGTAAGGAAATGCGAACCAGATTCACAGCAATGATGTATCGTAAAAACAGGTGAGATAATTTCGTGATCTGCTTTCACGAACTGATCAAAACGTCTCCCAGCAATGGGAGACTTTTGATATTGTCATTGTACTTTTTATCAGGGCCAGGATAATGGTAATAAAAAGTGAATGTAAATAATGTGTTTTGTTTATAACAATAAATTAACTGAGGGGTTTTATCATG (double strand) [pocR promoter]
[1]
  binding result: binds

## CCGATAGAGGTAAATGCTGTTGCCGGATCAAAAGAGTGCCGGGTAAAGACCCGTAAACGTGCTTTTTCTCACATTTCAATGAGTTATATAGATATTTATATAACGAAAACCACTAATAGCTGATAATTTCATTTACATTATCAATATCAGAATATTCCACTATATAAAAAGACGCTATTTTATTAATAATCTTGAAAATATGAGTAAATACAGATTAATAGATAATATGAATGTGTTAATCTGTTGTCAGTGAATACCGAAAACAGCAGAAAGGAAATACTGTGAACAATCAAATGAA (double strand) [eco promoter]
[1]
  binding result: binds

## CATGTTTGTGGCACTATCCGCTAGCGTAGCGACAGAAGATATTCATCGTTGTAAAAAAAATGGGATTCATCATTACATTACAAAACCAGTGACATTGGCTACCTTAGCTCGCTACATCAGTATTGCCGCAGAATACCAACTTTTACGAAATATAGAGCTACAGGAGCAGGATCCGAGTCGCTGCTCAGCGCTACTGGCGACAGATGATATGGTCATTAATAGCAAGATTTTCCAATCACTGGACCTCTTGCTGGCTGATATTGAAAATGCCGTATCGGCTGGAGAAAAAATCGATCAGTTAATTCACACATTAAAAGGCTGTTTAGGTCAAATAGGGCAGACTGAATTGGTATGCTATGTCATAGACATTGAGAATCGCGTAAAAATGGGGAAAATCATCGCGCTGGAGGAACTAACCGACTTACGCCAGAAAATACGTATGATCTTCAAAAACTACACCATTACTTAATATTATCTTAATTTTCGCGAGGGCAGCAAAATGAAAGAATATAAGATCTTATTAGTAGACG (double strand) [ssrB-B footprint fragment (non-coding strand label)]
[2]; [3]
  binding result: binds

## GATATGGTCATTAATAGCAAGATTTTCCAATCACTGGACCTCTTGCTGGCTGATATTGAAAATGCCGTATCGGCTGGAGAAAAAATCGATCAGTTAATTCACACATTAAAAGGCTGTTTAGGTCAAATAGGGCAGACTGAATTGGTATGCTATGTCATAGACATTGAGAATCGCGTAAAAATGGGGAAAATCATCGCGCTGGAGGAACTAACCGACTTACGCCAGAAAATACGTATGATCTTCAAAAACTACACCATTACTTAATATTATCTTAATTTTCGCGAGGGCAGCAAAAT (double strand) [ssrB promoter]
[1]
  binding result: binds

## GACAACATCAGCAACGATGTCGTTAGCCAGATAACGTCGCATCACCGTAATGGTAAATCATTCCATCATGATTATAGATTGCTTATTATTCACCTGAGCATCAAATTCTATTTCTTAACTTCAATATAAGGTAAAAATGCGTCAAGTTCTCTGGCGTAATAAATGTACTCTTGTCCGACGATTTGACAAGATGAAAACTTCATCACCTCTCCAGATTACATCTGAATATGAGGACAAGAGAAATG (double strand) [pgtE promoter]
[1]
  binding result: binds

## GCGCCGTTCTGGGTCGAAAAAATGCCAGAAATACCTGAACTGGTGTACGACAGTTTGCGCCAGGGCAAATATTTACAGCACAGTGTTGATAAGATTGCGCGCGAGTTACAGGTAAACCATGTGCGCCAAAGTCAGTCTCGTTATTTATTGGGAATTGGCGCAACGCTGTTACTGAGCGGGTCATTCTTACTCGTCAACCGCCCTGAATGGGGATTGATGCCTGGCTGGCTCATGGTCGGCGGCGTAGTTGTCTGGCTGGTTGGCTGGCGTAAAACTCGTTGAGATTTTTTATCGCTCAACGCCGGTTGTGTCACGCAGGTACATATTATCACTCGAGGCAATACTCAGGCCGCAAGTCAATGTCGTCCCGGTCGTATGTAAAAGTATGTGAATAGGGCGGGCGAAAGCGGCTAACAAAGAGGCAGCGTGAAGGATAATGTGTATAATGCGGCCCTAATAATTCATCATCTATCACAGAGGAACATGTATGGGTGGTATCAGTATTTGGCAGTTGTTGATTGTTG (double strand) [tatA-B footprint fragment (non-coding strand label)]
[2]; [3]
  binding result: binds

## AGTTGTCTGGCTGGTTGGCTGGCGTAAAACTCGTTGAGATTTTTTATCGCTCAACGCCGGTTGTGTCACGCAGGTACATATTATCACTCGAGGCAATACTCAGGCCGCAAGTCAATGTCGTCCCGGTCGTATGTAAAAGTATGTGAATAGGGCGGGCGAAAGCGGCTAACAAAGAGGCAGCGTGAAGGATAATGTGTATAATGCGGCCCTAATAATTCATCATCTATCACAGAGGAACATGTATGGGTGGTATCAGTATTTGGCAGTTGTTGATTGTTGCCGTTATCGTCGTACTGCTGTTCGGCACCAAAAAACTCGGTTCCATCGGTTCCGATCTTGGCGCGTCTATCAAAGGCTTTAAAAAGGCCATGAGCGATGATGATGCCAAACAGGATAAAACCAGTCAGGACGCTGATTTTACCGCTAAATCTATCGCGGATAAGCAAGGCGAAGCGAAAAAGGAAGACGCTAAAAGCCAAGATAAAGAGCAGGTATAATCCGTGTTTGATATCGGTTTTAGCGAA (double strand) [tatA-A footprint fragment (coding strand label)]
[2]; label: DIG on coding strand
  binding result: binds
